The entries are a selection whose mix differs from that of the whole data set. Calls of active or inactive are those of the source. Rule as the data show it: active = inhibition above about 50%; inactive = the rest.
The compounds below were run against Gag-Pol polyprotein (Human immunodeficiency virus type 1 group M subtype B (isolate HXB2)) (UniProt P04585) (assay: RNase H inhibition, HIV 1 Gag Pol polyprotein, FRET biochemical assay, screening (AID 372)). Details: HIV-1 RT RNase H, FRET RNA/DNA substrate fluorescence; at 10 µM; stronger effect = higher value.
`CP(=O)(Oc1ccccc1F)Oc1ccccc1F` was tested, and the inhibition was inactive: 13%.
For `O=[N+]([O-])c1nonc1COc1nonc1[N+](=O)[O-]`, the inhibition was inactive: 3%.
`CCOP(C)(=S)SCC(=O)NC(C)C(=O)O` (centres undefined) was tested, and the inhibition was inactive: 1%.
For `CN(C)CCOC(=O)C(O)(c1ccccc1)c1ccccc1`, the inhibition was inactive: 4%.
`CP(=O)(Nc1cccc(Br)c1)Oc1cccc(Cl)c1Cl` (centres undefined) was tested, and the inhibition was inactive: 7%.
In the case of `CCCCOP(=O)(CCC)OCCCC`, the inhibition was inactive: 0%.
With `Cc1cc(C)cc(OP(C)(=O)Nc2ccc(F)cc2)c1` (centres undefined) the inhibition was inactive: 9%.
In the case of `CP(=O)(Oc1ccccc1)Oc1ccccc1`, the inhibition was inactive: 0%.
With `CP(=O)(Oc1ccc(Cl)cc1)Oc1ccc(Cl)cc1` the inhibition was inactive: 6%.
In the case of `O=[N+]([O-])[N-][n+]1cnn(CCn2c[n+]([N-][N+](=O)[O-])cn2)c1`, the inhibition was inactive: 1%.
In the case of `CP(=O)(Nc1ccc(Br)cc1)Oc1ccc(Cl)cc1` (centres undefined), the inhibition was inactive: 9%.
With `Cc1cc(C)cc(OP(C)(=O)Nc2ccc(Cl)cc2)c1` (centres undefined) the inhibition was inactive: 16%.
For `COc1ccc(OP(C)(=O)Nc2ccccc2)cc1` (centres undefined), the inhibition was inactive: 5%.
`CP(=O)(Oc1ccc(F)cc1)Oc1ccc(F)cc1` was tested, and the inhibition was inactive: 9%.
With `Cc1ccc(NP(C)(=O)Oc2ccc(Cl)cc2)cc1` (centres undefined) the inhibition was inactive: 5%.
With `CCc1ccc(OP(C)(=O)O)cc1` the inhibition was inactive: 1%.
`CCOP(C)(=S)SCN(CC(=O)O)C(=O)OCc1ccccc1` (centres undefined) was tested, and the inhibition was inactive: 0%.
In the case of `O=C(OCCCN1CCOCC1)C(O)(c1ccc(Br)cc1)c1ccc(Br)cc1`, the inhibition was inactive: 8%.
`CC(C)c1ccc(OP(C)(=O)O)cc1` was tested, and the inhibition was inactive: 5%.

— PubChem BioAssay AID372 (MTDP, 2006)
